Data from patent US20240199647A1, “ANTI-VIRAL COMPOUNDS” (Aligos Therapeutics, Inc., priority 2022, published 2024).

Columns and labels:
[1] = tested on: HeLa human cervical epithelial cells; assay: Cytotoxicity in HeLa cells without addition of OC43 virus (in parallel); details: Table B, class symbols
Description: (§1) HeLa human cervical epithelial cells (ATCC) were used as susceptible host cell lines and were cultured using EMEM media, supplemented with 10% fetal bovine serum (FBS), 1% (v/v) penicillin/streptomycin (P/S), 1% (v/v) HEPES and 1% (v/v) Cellgro Glutagro™ supplement (all Corning, Manassas, VA) at 37° C. For the OC43 antiviral assay, 1.5×10^4 HeLa cells per well were plated in 100 μL complete media in white 96-well plates with clear bottoms at 37° C. for up to 24 h to facilitate attachment and allow cells to recover from seeding stresses. Next day, the cell culture medium was removed. Serially diluted compounds in 100 μL assay media (EMEM, 2% FBS, 1% P/S, 1% Cellgro Glutagro™ supplement, 1% HEPES) were added to the cells and incubated for 4 h at 37° C. in a humidified 5% CO2 incubator. […] 96-well plates were incubated for 6 days at 33° C.; each plate contains uninfected control wells as well as virus-infected wells that were not treated with compound. Cytotoxicity plates without the addition of OC43 virus were carried out in parallel. At the end of the incubation period, 100 μL cell culture supernatant was replaced with 100 μL cell-titer-glo reagent (Promega, Madison, WI) and incubated for at least 10 min at rt prior to measuring luminescence. Luminescence was measured on a Perkin Elmer (Waltham, MA) Envision plate reader. […]

[2] = tested on: SARS-CoV-2 B.1.1.7 lineage; assay: B.1.1.7 Infection Model in A549-Dual ACE2 TMPRSS2 Cells (antiviral, CPE, MTS); details: read-out: A549-dual_ACE2_TMPRSS2 (EC50); Table C; SARS-CoV-2 B.1.1.7 in A549-dual_ACE2_TMPRSS2 cells, class symbols
Description: B.1.1.7 Infection Model in A549-Dual ACE2 TMPRSS2 Cells
The A549-dual_ACE2_TMPRSS2 cells (InvivoGen Cat #a-49-cov2r) were propagated in the growth medium which was prepared by supplementing DMEM (gibco cat no 41965-039) with 10% v/v heat-inactivated FCS and 10 μg/mL blasticidin (InvivoGen ant-b1-05), 100 μg/mL hygromycin (InvivoGen ant-hg-1), 0.5 μg/mL puromycin (InvivoGen ant-pr-1) and 100 μg/mL zeocin (InvivoGen ant-zn-05) in a humidified 5% CO2 incubator at 37° C. The assay medium was prepared by supplementing DMEM (gibco cat no 41965-039) with 2% v/v heat-inactivated FCS.
The virus isolate used is from the B.1.1.7 lineage (derived from hCoV-19/Belgium/rega-12211513/2020; EPI_ISL_791333,2020-12-21; see Abdelnabi et al., “Comparing infectivity and virulence of emerging SARS-CoV-2 variants in Syrian hamsters” EBioMedicine (2021) June; 68:103403. doi: 10.1016/j.ebiom.2021.103403).
For antiviral testing, cells were seeded in 96-well plates (Falcon) at a density of 15,000 cells per well in assay medium. After overnight growth, cells were treated with the indicated compound concentrations and infected with a MOI of 0.001 TCID50/cell (final volume 200 μL/well in assay medium). On day 4p.i. differences in cell viability caused by virus-induced CPE or by compound-specific side effects are analyzed using MTS as described previously (PMID: 22575574). […]

[3] = tested on: human beta-coronavirus OC43; assay: OC43 Coronavirus Assay in HeLa cells (antiviral, cytopathic effect, cell-titer-glo); details: Table B, class symbols
Description: as §1, with “OC43 Coronavirus Assay in HeLa cells […] HeLa human” for “HeLa human”

SARS-Cov-2 3CLpro = SARS-Cov-2 3CLpro (Severe acute respiratory syndrome coronavirus 2, UniProt P0DTD1); details: read-out: SARS-Cov-2 (IC50), Table A, class symbols

CN(C(=O)[C@H](CC1CC1)NS(=O)(=O)C1CC1)[C@@H](CC1CC1)C(=O)N1C[C@@]2(C[C@H]1C#N)Oc1cc(F)cc(F)c1NC2=O
CC50 [1]: > 10000 nM | EC50 [2]: < 100 nM | EC50 [3]: 1000 to 10000 nM | IC50 (SARS-Cov-2 3CLpro): < 20 nM
